PubChem BioAssay AID624099 | ICCB-Longwood | 2012

- Screen: 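Knock-downs relieving repression by E2 of an HPV18 LCR luciferase reporter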 (primary screen)
- Cell system: human C33A cervical carcinoma cells (HPV-negative) stably expressing BPV1 E2 and an HPV18 LCR luciferase reporter
- Reagents: siRNA pool against human genes, 40 nM
- Time to read-out: 72 h
- Detection: 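HPV18 LCR reporter light per well, converted to plate-wise z-scores that exclude control wells, and averaged over triplicate plates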
- Direction: mean z-score and z-score: higher = stronger reporter signal, weaker E2 silencing
- Rule for the call: 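Mean z ≥ 2 together with z ≥ 2 in two or more of the three replicates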
This is one part, drawn at random, of about 21,000 reagents. 497 of them (2.4%) were called active. 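Higher z means weaker E2 silencing; only reporter increases were scored, and knock-downs that hurt cell survival may mask genuine repressor factors.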

After knock-down of CLMP (CXADR like cell adhesion molecule), the screen gave mean z-score -0.79; z-score, replicate A = -1.27; z-score, replicate B = -0.6; z-score, replicate C = -0.49; inactive.
Knock-down of APRT (adenine phosphoribosyltransferase) resulted in: mean z-score -0.67; z-score, replicate A = -0.56; z-score, replicate B = -0.81; z-score, replicate C = -0.64; inactive.
NDUFA12 (NADH:ubiquinone oxidoreductase subunit A12) showed mean z-score -0.95; z-score, replicate A = -0.51; z-score, replicate B = -1.27; z-score, replicate C = -1.08; inactive.
After knock-down of TASP1 (taspase 1), the screen gave mean z-score 0.74; z-score, replicate A = 0.69; z-score, replicate B = 1.04; z-score, replicate C = 0.5; inactive.
For TTLL2 (tubulin tyrosine ligase like 2), the values are mean z-score -0.29; z-score, replicate A = -0.53; z-score, replicate B = -0.38; z-score, replicate C = 0.05; inactive.
After knock-down of RPL12 (ribosomal protein L12), the record shows mean z-score 1.03; z-score, replicate A = 1.14; z-score, replicate B = 0.84; z-score, replicate C = 1.11; inactive.
Silencing of ARRDC1-AS1 (ARRDC1 antisense RNA 1) gave: mean z-score 0.79; z-score, replicate A = 0.68; z-score, replicate B = 0.61; z-score, replicate C = 1.06; inactive.
KLKB1 (kallikrein B1) scored mean z-score -0.19; z-score, replicate A = 0.15; z-score, replicate B = 0.22; z-score, replicate C = -0.95; inactive.
After knock-down of DPH6 (diphthamine biosynthesis 6), the record shows mean z-score -0.76; z-score, replicate A = -0.84; z-score, replicate B = -0.53; z-score, replicate C = -0.9; inactive.
For MGAT1, the values are mean z-score 0.51; z-score, replicate A = 0.35; z-score, replicate B = 0.32; z-score, replicate C = 0.86; inactive.
Silencing of UHRF2 (ubiquitin like with PHD and ring finger domains 2) resulted in: mean z-score 0.49; z-score, replicate A = 0.49; z-score, replicate B = 0.37; z-score, replicate C = 0.62; inactive.

Taken from above:
Entry for UHRF2 (ubiquitin like with PHD and ring finger domains 2) under “mean z-score”: 0.49
For “mean z-score”, MGAT1 reads 0.51

Continued:
After knock-down of GFI1 (growth factor independent 1 transcriptional repressor), the record shows mean z-score -1.4; z-score, replicate A = -1.91; z-score, replicate B = -1.1; z-score, replicate C = -1.19; inactive.
With knock-down of KAZALD1 (Kazal type serine peptidase inhibitor domain 1), the record shows mean z-score -0.81; z-score, replicate A = -1.03; z-score, replicate B = -0.74; z-score, replicate C = -0.65; inactive.
Depletion of NRG1 (neuregulin 1) gave: mean z-score -0.01; z-score, replicate A = -0.17; z-score, replicate B = -0.01; z-score, replicate C = 0.14; inactive.
Knock-down of ZNF329 (zinc finger protein 329) came out at: mean z-score 0.31; z-score, replicate A = 0.96; z-score, replicate B = 0.28; z-score, replicate C = -0.3; inactive.
Knock-down of LOC387781 (retired record) gave: mean z-score 0.75; z-score, replicate A = 0.56; z-score, replicate B = 0.86; z-score, replicate C = 0.83; inactive.
For SNX13 (sorting nexin 13) the deposit lists mean z-score -0.41; z-score, replicate A = -0.55; z-score, replicate B = -0.02; z-score, replicate C = -0.66; inactive.
After knock-down of PRELID3B (PRELI domain containing 3B), the record shows mean z-score 0.15; z-score, replicate A = 0.42; z-score, replicate B = 0.03; z-score, replicate C = -0.01; inactive.
For RERE (arginine-glutamic acid dipeptide repeats), the values are mean z-score 1.55; z-score, replicate A = 1.32; z-score, replicate B = 1.55; z-score, replicate C = 1.79; inactive.
AKAP11 (A-kinase anchoring protein 11) scored z-score, replicate A = 0.41; z-score, replicate B = -0.21; inactive.
With knock-down of TMEM167A (transmembrane protein 167A), the record shows mean z-score -0.71; z-score, replicate A = -0.59; z-score, replicate B = -1; z-score, replicate C = -0.55; inactive.
